Each structure is given as a SMILES string.

This note sets out measurements from publication PMC13334477 (RSC Medicinal Chemistry, 2026).

Series [1] concerns rLTR4-5′Cy5 (parallel RNA G4). Put plainly: Ligand-induced fluorescence quenching assay (FQA), rLTR4-5′Cy5. Type of series: binding, HIV-1. As to conditions: Ka (+10µM ds26)/Ka (No ds26). The procedure: (§1) Cy5 labelled oligonucleotides were purchased lyophilized and RP-cartridge purified from Eurogentec (Kanaka Eurogentec, Seraing, Belgium). The ligand-induced fluorescence quenching assay was conducted as previously described.[47] A Stratagene Mx3005P instrument was used to carry out the assay in 96-well plates. The filters for excitation and emission were set at 635 nm and 665 nm, respectively. The gain was used at 8×. The labeled oligonucleotide was used at 10 nM, and the buffer was 10 mM lithium cacodylate (pH 7.2), 10 mM KCl, and 90 mM LiCl in a final volume of 50 μL. The oligonucleotide was heated at 90 °C for 5 min and put in ice to anneal. […] The instrument was programmed to heat the plate for 10 min at 25 °C and measure the fluorescence after 1 min for 5 cycles. The fluorescence of each sample was normalized, and the fluorescence of the ligand alone was subtracted.
(§2) We then addressed the binding of the DBA series to the rLTR4 RNA G4. […] We have therefore used a ligand-induced fluorescence quenching assay (FQA) to analyse the interaction of the DBAs with either 5′ or 3′ fluorescently labelled RNAs (Fig. S8). […] To conduct a fluorescence quenching experiment, a CY5 fluorophore is attached on the 3′ or 5′ end of the RNA. […] Thus, upon interaction of the ligand with the G-quartet, the ligand induces the quenching of the fluorescence emission. […]

Series [2] relates to rLTR4-3′Cy5 (parallel RNA G4). Put plainly: Ligand-induced fluorescence quenching assay (FQA), rLTR4-3′Cy5. Type of series: binding, HIV-1. As to conditions: Ka (+10µM ds26)/Ka (No ds26). The procedure: as §1, §2
For series [3], the system named is HIVpro1, HIVpro2, LTR4 and Htel DNA G4s. Put plainly: FRET melting assay, four DNA G4s together. Format: binding. The note with it: average of the four ratios ΔT1/2 (+10µM ds26)/ΔT1/2 (No ds26).

Turning to `COc1ccc2c(ccc3c2cc2c4ccc(OC)cc4ccc2[n+]3-c2ccc([N+](=O)[O-])cc2)c1` [DBA4], in series [1], the “Specificity Index rLTR4-5′Cy5 FQA” value was 0.5. Further, the “Specificity Index rLTR4-3′Cy5 FQA” value in series [2] is recorded as 0.6. The “Specificity Index (FRET melting)” value in series [3] is 0.8.
